Patent publication US10039812B2, “Therapeutic for treating clostridium difficile infection” (priority 2012, dated 2018)

System: C. difficile strain 630Δerm
Assay: Inhibition of biofilm formation in TC flasks
Details: 10 μg/ml added prior to inoculation; 6 day incubation, static and shaking

B1: proteinase K: a proteinase used to digest biofilm constituents (protein, UniProt P06873 106-384, looked up)
Proteinase K: AAQTNAPWGLARISSTSPGTSTYYYDESAGQGSCVYVIDTGIEASHPEFEGRAQMVKTYYYSSRDGNGHGTHCAGTVGSRTYGVAKKTQLFGVKVLDDNGSGQYSTIIAGMDFVASDKNNRNCPKGVVASLSLGGGYSSSVNSAAARLQSSGVMVAVAAGNNNADARNYSPASEPSVCTVGASDRYDRRSSFSNYGSVLDIFGPGTSILSTWIGGSTRSISGTSMATPHVAGLAAYLMTLGKTTAASACRYIADTANKGDLSNIPFGTVNLLAYNNYQA
With B1 the “Biofilm formation (flocs or aggregates)” value was “appeared smaller in the case of the aggregates and less dense in the case of the floc”.
